Anti-infective test results gathered from many reports (values: NIAID ChemDB through PubChem).

All rows: whole-cell or culture tests

Neighbouring rows are from separate reports. Blank or dashed fields: not listed here. ECn is the concentration giving n% inhibition of infection, replication or growth. Inhibition is in % at the dose shown (toxicity tests: loss of growth or viability). MIC50, MIC90 and the like: level of inhibition, or share of isolates inhibited.

compound,agent,cell line,read by,measure,dose,value
O=c1c2cccnc2[se]n1C1CCCCC1,Encephalomyocarditis virus,,,MIC,,4 µg/mL
CC(C)OC(=O)Nc1ccc2nc(-c3cscn3)[nH]c2c1,Encephalitozoon intestinalis,E6 HOST CELLS,,EC50,,0.075 µg/mL
CCOC(=O)Nc1cc2c(c(N)n1)N=C(c1cccc(OC)c1)CS2,Encephalitozoon intestinalis,RK-13,,inhibition,0.1 µg/mL,31.9%
Cc1ncc([N+](=O)[O-])n1CCO,Encephalitozoon cuniculi,MRC-5 fibroblasts,cytopathic effect,inhibition,10 µg/mL,3%
O=c1[nH][se]c2ccccc12,Encephalomyocarditis virus,,,MIC,,0.4 µg/mL
c1ccc2[nH]c(-c3cscn3)nc2c1,Encephalitozoon intestinalis,E6,,EC50,,0.025 µg/mL
COc1c(N2CCNC(C)C2)c(F)cc2c(=O)c(C(=O)O)cn(C3CC3)c12,Encephalitozoon intestinalis,,,MIC50,,85 µM
CCCNC(=S)Nc1ccccc1[Se][Se]c1ccccc1NC(=S)NCCC,Encephalomyocarditis virus,,,MIC,,>1000 µg/mL
CCNCCCCNCCCCNCCCCNC/C=C/CNCCCCNCCCCNCCCCNCC,Encephalitozoon cuniculi,,,EC50,,8.2 µM
C(=Nc1ccccc1[Se][Se]c1ccccc1N=Cc1ccccc1)c1ccccc1,Encephalomyocarditis virus,,,MIC,,8 µg/mL
CCn1cc(C(=O)O)c(=O)c2cc(F)c(N3CCNCC3)cc21,Encephalitozoon intestinalis,,,MIC50,,1 µM
CC(C)C[C@H](NC(=O)[C@@H](O)[C@H](N)Cc1ccccc1)C(=O)O,Encephalitozoon cuniculi,,,EC50,,10 µg/mL
O=c1c2cccnc2[se]n1N(c1ccccc1)c1ccccc1,Encephalomyocarditis virus,,,MIC,,500 µg/mL
Cc1cc(-n2c(=O)[nH]c(=O)n(C)c2=O)ccc1Oc1ccc(SC(F)(F)F)cc1,Encephalitozoon cuniculi,,,EC50,,>5 µg/mL
CCOc1ccc(OCC)c(NCc2cnc3nc(N)nc(N)c3c2C)c1,Encephalitozoon intestinalis,RK-13,,inhibition,0.1 µg/mL,6%
Oc1ccccc1[Se][Se]c1ccccc1O,Encephalomyocarditis virus,,,MIC,,4 µg/mL
CCn1cc(C(=O)O)c(=O)c2cc(F)c(N3CCNC(C)C3)c(F)c21,Encephalitozoon intestinalis,,,MIC50,,3 µM
O=c1c2ccccc2[se]n1-c1ccccc1,Encephalomyocarditis virus,,,MIC,,10 µg/mL
Nc1nc2c(ncn2COC(CO)CO)c(=O)[nH]1,Encephalitozoon cuniculi,,,EC50,,>5 µg/mL
C[n+]1cccc(-n2[se]c3ccccc3c2=O)c1,Encephalomyocarditis virus,,,MIC,,20 µg/mL
CCOC(=O)Nc1nc(NC(=O)OCC)c2c(c1N)NC(C)C(c1ccccc1)=N2,Encephalitozoon intestinalis,RK-13,,inhibition,0.01 µg/mL,0%
COC(=O)Nc1nc2ccc(C(=O)c3ccccc3)cc2[nH]1,Encephalitozoon intestinalis,E6 HOST CELLS,,EC50,,0.2 µg/mL
CO[C@H]1[C@@H](OC(=O)/C=C/C=C/C=C/C=C/C(=O)O)CC[C@@]2(CO2)[C@@H]1[C@@]1(C)O[C@@H]1CC=C(C)C,Encephalitozoon cuniculi,,,EC50,,0.00086 µg/mL
CN(C)c1ccc(O)c2c1C[C@H]1C[C@H]3[C@H](N(C)C)C(=O)C(C(N)=O)=C(O)[C@@]3(O)C(=O)C1=C2O,Encephalitozoon cuniculi,MRC-5 fibroblasts,cytopathic effect,inhibition,20 µg/mL,35%
CO[C@@H]1[C@H](OC(=O)NC(=O)CCl)CC[C@]2(CO2)[C@H]1[C@@]1(C)O[C@@H]1CC=C(C)C,Encephalitozoon cuniculi,RK-13,,EC50,,0.001 µg/mL
O=C(Nc1ccccc1[Se][Se]c1ccccc1NC(=O)c1ccccc1)c1ccccc1,Encephalomyocarditis virus,,,MIC,,>1000 µg/mL
COC(=O)Nc1nc2ccc(C(=O)C3CC3)cc2[nH]1,Encephalitozoon intestinalis,E6 HOST CELLS,,EC50,,0.03 µg/mL
Nc1ccccc1[Se][Se]c1ccccc1N,Encephalomyocarditis virus,,,MIC,,10 µg/mL
CCn1cc(C(=O)O)c(=O)c2cc(F)c(N3CCNCC3)nc21,Encephalitozoon intestinalis,,,MIC50,,69 µM
NC(=O)c1c[se]c([C@@H]2O[C@H](CO)[C@@H](O)[C@H]2O)n1,Encephalomyocarditis virus,HeLa,cytopathic effect,EC50,,5 µg/mL
c1ccc2[nH]c(-c3cscn3)nc2c1,Encephalitozoon intestinalis,RK-13,,inhibition,1 µg/mL,88.4%
Nc1ncnc2c1ncn2Cc1c(F)cccc1Cl,Encephalitozoon cuniculi,MRC-5 fibroblasts,cytopathic effect,inhibition,15 µg/mL,29%
CCOC(=O)Nc1cc(NC/C(=N/O)c2ccc(Cl)cc2Cl)c([N+](=O)[O-])c(N)n1,Encephalitozoon intestinalis,RK-13,,inhibition,0.01 µg/mL,6.5%
CCCSc1ccc2nc(NC(=O)OC)[nH]c2c1,Encephalitozoon intestinalis,E6,,EC50,,0.005 µg/mL
CCCCNS(=O)(=O)c1ccc(NC(=O)CCC[Se][Se]CCCC(=O)Nc2ccc(S(=O)(=O)NCCCC)cc2)cc1,Encephalomyocarditis virus,,,MIC,,>1000 µg/mL
COC(=O)Nc1nc2ccc(S(=O)c3ccccc3)cc2[nH]1,Encephalitozoon intestinalis,E6,,EC50,,0.004 µg/mL
NC(N)=NS(=O)(=O)c1ccc(N)cc1,Encephalitozoon cuniculi,MRC-5 fibroblasts,cytopathic effect,inhibition,5 µg/mL,0%